Compound potency records, mixed from different reports. Data source: NIAID ChemDB in PubChem.

All rows: whole-cell or culture tests; agent: Mycobacterium tuberculosis

An empty or dashed field is not shown. Percent inhibition refers to the dose given; in toxicity tests it is the harm to the cells. Rows are shuffled and stem from different studies. MIC50, MIC90 and the like: level of inhibition, or share of isolates inhibited. MIC bound: limit read from a one-dose screen. Fold resistance has wild type as its base. ECn: concentration that inhibits the pathogen or its effect by n%.

smiles	conditions	strain	cell line	method	read-out	mutations	tested at	result
COc1ccc(/C=C/C(=O)c2c(O)cccc2OC)cc1		H37Rv			MIC			>12.5 µg/mL
O=c1[nH]c2ccccc2c(O)c1N=Nc1ccccc1		H37Rv		resazurin	MIC			<6.25 µg/mL
COc1c(N2CCNC(C)C2)c(F)cc2c(=O)c(C(=O)O)cn(C3CC3)c12		Strain 5			MIC			0.125 µg/mL
O=c1oc2ccc(Br)cc2c(=S)n1-c1ccc(Cl)c(Cl)c1	14 d	My 331/88			MIC			1 µM
CCCCN(C)CCNc1cc(C)nc(Nc2nc3ccc(Cl)cc3[nH]2)n1		H37Rv	VERO		MIC			0.39 µg/mL
CCc1nc2ccccc2n1CCCCOc1cccc(C)c1		H37Rv		turbidity / fluorescence	fold resistance	QcrB M342T		17
O=C(NC(CO)(CO)CO)c1cccnc1		H37Rv		BACTEC	inhibition		12.5 µg/mL	8%
CN[C@@H]1[C@H](O[C@H]2[C@H](O[C@H]3[C@H](O)[C@@H](O)[C@H](N=C(N)N)[C@@H](O)[C@@H]3N=C(N)N)O[C@@H](C)[C@]2(O)C=O)O[C@@H](CO)[C@H](O)[C@H]1O		ATCC 27294			MIC90			0.06 µM
O=c1[nH]c2ccccc2c(O)c1N=Nc1cccc(Cl)c1		H37Rv		resazurin	MIC			>6.25 µg/mL
Nc1ncccc1/C=C/C(=O)c1ccc2c(c1)-c1ccccc1C2		H37Rv			inhibition		12.5 µg/mL	53%
Clc1ccc(-n2ncc(C(c3ccccc3)n3ccnc3)c2-c2ccccc2)cc1		ATCC 35828 (pyrazinamide-resistant)			MIC50			≥100 µM
CO[C@H]1/C=C/O[C@@]2(C)Oc3c(C)c(O)c4c(O)c(c(/C=N/N5CCN(C/C=C/c6ccccc6)CC5)c(O)c4c3C2=O)NC(=O)/C(C)=C\C=C\[C@H](C)[C@H](O)[C@@H](C)[C@@H](O)[C@@H](C)[C@H](OC(C)=O)[C@@H]1C		2912 (rifampin-sensitive)			MBC			0.1 µg/mL
COc1ccc(/C=C/C(=O)c2cc(Br)ccc2O)cc1		H37Rv			MIC			>12.5 µg/mL
COc1ccc2oc(=O)n(-c3ccc(Br)cc3)c(=S)c2c1	14 d	My 331/88			MIC			32 µM
COc1ccc(C2Oc3cc(OC)cc(OC)c3C(=O)C2Br)cc1					inhibition		12.5 µg/mL	0%
Cc1cnc(C#N)c(-n2ccnc2)n1		H37Rv		BACTEC	MIC bound			>12.5 µg/mL
Clc1ccccc1C(c1ccccc1)(c1ccccc1)n1ccnc1		ATCC 35828 (pyrazinamide-resistant)			MIC90			≥100 µM
C[C@H]1COc2c(N3CCN(C)CC3)c(F)cc3c(=O)c(C(=O)O)cn1c23		CSU23			MIC			0.25 µg/mL
COc1ccc(C(=O)CN2CCN(c3cc4c(cc3F)c(=O)c(C(=O)O)cn4C3CC3)CC2)cc1		H37Rv			MIC			>6.25 µg/mL
O=C1CC(c2ccccc2O)Oc2ccccc21					inhibition		12.5 µg/mL	1%
O=c1c(O)c(-c2ccccc2)oc2ccccc12		H37Rv			MIC			>12.5 µg/mL
CC[C@H]1OC(=O)[C@H](C)[C@@H](O[C@H]2C[C@@](C)(OC)[C@@H](O)[C@H](C)O2)[C@H](C)[C@@H](O[C@@H]2O[C@H](C)C[C@H](N(C)C)[C@H]2O)[C@](C)(OC)C[C@@H](C)C(=O)[C@H](C)[C@@H](O)[C@]1(C)O		MDR-2037 (MDR)			MIC			8 µg/mL
CN(C)c1ccc(/C=N/NC(=O)CCSCCC(=O)N/N=C/c2ccc(N(C)C)cc2)cc1		H37Rv		BACTEC	MIC			≥12.5 µg/mL
CO[C@H]1/C=C/O[C@@]2(C)Oc3c(C)c(O)c4c(=O)c(c5oc6cc(N7CCN(CC(C)C)CC7)cc(=O)c6nc5c4c3=C2O)NC(=O)/C(C)=C\C=C\[C@H](C)[C@H](O)[C@@H](C)[C@@H](O)[C@@H](C)[C@H](OC(C)=O)[C@@H]1C		2219 (rifampicin-resistant)			MIC			2 µg/mL
COc1cc(OC)c2c(c1)OC(c1ccc(OC)c(I)c1)CC2=O					EC50			>12.5 µg/mL
O=c1[nH]c2c(Cl)cccc2c(O)c1N=Nc1ccc(Cl)c(Cl)c1		H37Rv		resazurin	inhibition		6.25 µg/mL	21%
Fc1ccc(-c2c(C(c3ccccc3)n3ccnc3)cnn2-c2ccccc2)cc1		ATCC 35837 (ethambutol-resistant)			MIC90			≥100 µM
CO[C@H]1/C=C/O[C@@]2(C)Oc3c(C)c(O)c4c(O)c(c5c(c4c3C2=O)NC2(CCN(CC(C)C)CC2)N=5)=NC(=O)/C(C)=C\C=C\[C@H](C)[C@H](O)[C@@H](C)[C@@H](O)[C@@H](C)[C@H](OC(C)=O)[C@@H]1C		Strain 85 (D516V)			MIC			0.25 µg/mL
Clc1ccc(-n2ncc(C(c3ccccc3)n3ccnc3)c2-c2ccccc2Cl)c(Cl)c1		ATCC 35820 (streptomycin-resistant)			MIC90			100 µM
CO[C@H]1/C=C/O[C@@]2(C)Oc3c(C)c(O)c4c(O)c(c(/C=N/N5CCN(C)CC5)c(O)c4c3C2=O)NC(=O)/C(C)=C\C=C\[C@H](C)[C@H](O)[C@@H](C)[C@@H](O)[C@@H](C)[C@H](OC(C)=O)[C@@H]1C		Isolate 8			MIC			>32 µg/mL
COc1ccc(CCc2cc(OC)c3ccccc3n2)cc1OC		MT10			MIC			>310 µg/mL
NNC(=O)c1ccncc1		Isolate 17			MIC			1 µg/mL
O=S(=O)(Nc1nccs1)c1ccc(N=Cc2cn(Cc3ccccc3)c3ccccc23)cc1		H37Rv		BACTEC	inhibition		6.25 µg/mL	96%
C[C@@H]1CN(c2c(F)c(N)c3c(=O)c(C(=O)O)cn(C4CC4)c3c2F)C[C@H](C)N1		MDR-2 (MDR)			MIC			0.2 µg/mL
O=C(CN1CCN(c2cc3c(cc2F)c(=O)c(C(=O)O)cn3C2CC2)CC1)c1ccc(F)cc1		H37Rv	VERO		MIC			0.78 µg/mL
COc1ccc(C(C)=NOC(=O)c2c(-c3ccccc3Cl)noc2C)cc1CN1CCOCC1		H37Rv		resazurin	inhibition		6.25 µg/mL	52%
COc1ccc(/C=C/C(=O)c2ccc([N+](=O)[O-])cc2)cc1		H37Rv			EC50			<12.5 µg/mL
C[C@@H]1CC[C@@]2(OC1)O[C@H]1C[C@H]3[C@@H]4CC=C5C[C@@H](O)CC[C@]5(C)[C@H]4CC[C@]3(C)[C@H]1[C@@H]2C		H37Rv		BACTEC	MIC			≥128 µg/mL
COc1ccc(/C=C/C(=O)c2cc(Cl)ccc2O)cc1		H37Rv			MIC			>12.5 µg/mL
CC(=O)c1ccc(N=Nc2c(O)c3ccccc3n(C)c2=O)cc1		H37Rv		resazurin	MIC			>6.25 µg/mL
O=C(O)c1cn(C2CC2)c2c(F)c(N3CCSCC3)c(F)cc2c1=O		CSU28			MIC			2 µg/mL
O=c1[nH]c2c([N+](=O)[O-])cccc2c(O)c1N=Nc1ccc(F)cc1		H37Rv		resazurin	MIC			>6.25 µg/mL
CCc1nc2ccc(C)cc2n1CCCCNc1ccc(C)cc1		H37Rv		turbidity / fluorescence	fold resistance	QcrB M342T		55
CCn1cc(C(=O)O)c(=O)c2cc(F)c(N3CCN(CC(=O)c4ccc(F)cc4)CC3)nc21		H37Rv			MIC			>6.25 µg/mL
CO[C@H]1/C=C/O[C@@]2(C)Oc3c(C)c(O)c4c(=O)c(c5oc6cc(N7CCN(C(C)C)CC7)cc(=O)c6nc5c4c3=C2O)NC(=O)/C(C)=C\C=C\[C@H](C)[C@H](O)[C@@H](C)[C@@H](O)[C@@H](C)[C@H](OC(C)=O)[C@@H]1C		3125 (rifampin-sensitive)			MIC			0.025 µg/mL
Cc1ccc(C)n1-c1ccsc1C(=O)NNC(=O)C(Cl)Cl		H37Rv		BACTEC	MIC bound			>12.5 µg/mL
Clc1ccccc1-c1c(C(c2ccccc2)n2ccnc2)cnn1-c1ccccc1		ATCC 35837 (ethambutol-resistant)			MIC50			41.1 µM
O=c1oc2ccc(F)cc2c(=S)n1-c1ccc(Cl)cc1	14 d	My 331/88			MIC			1 µM
Cc1ccccc1N=Nc1c(O)c2ccccc2n(C)c1=O		H37Rv		resazurin	MIC			<6.25 µg/mL
Nc1nc(N)c2nonc2n1		H37Rv		BACTEC	MIC bound			>12.5 µg/mL
O=C1c2ccccc2OC(c2ccccc2)C1(Br)Br		H37Rv			EC50			>12.5 µg/mL
C[C@H]1COc2c(N3CCN(C)CC3)c(F)cc3c(=O)c(C(=O)O)cn1c23		Strain 370			MIC			0.25 µg/mL
CCN(CC)C(=S)S[Se](SC(=S)N(CC)CC)(SC(=S)N(CC)CC)SC(=S)N(CC)CC		PZA-R			MIC			0.8 µg/mL
CCc1nc2ccc(C)cc2n1CCCNc1ccc(Br)c(C)c1		H37Rv		turbidity / fluorescence	MIC90	WT		0.66 µM
CNC(=S)N/N=C/c1cnccn1		H37Rv		BACTEC	MIC bound			>12.5 µg/mL
Clc1ccc(-c2c(C(c3ccccc3)n3ccnc3)cnn2-c2ccc(Cl)cc2)cc1		ATCC 35837 (ethambutol-resistant)			MIC50			≥100 µM
COC1=C(OC)C(=O)C2=C(OCO2)C1=O		H37Rv		BACTEC	MIC bound			>12.5 µg/mL
C[C@@H]1CN(c2c(F)c(N)c3c(=O)c(C(=O)O)cn(C4CC4)c3c2F)C[C@H](C)N1		CSU27			MIC			≤0.125 µg/mL
CN1c2ccccc2CCC1CCc1ccc2c(c1)OCO2		MT1			MIC			>100 µg/mL
CCn1cc(C(=O)O)c(=O)c2cc(F)c(N3CCN(C/C(=N/O)c4ccc(Br)cc4)CC3)cc21		H37Rv			MIC			>6.25 µg/mL
c1ccc(-c2c(C(c3ccccc3)n3ccnc3)cnn2-c2ccccc2)cc1		ATCC 27294			MIC50			69.9 µM
O=c1c(I)c(-c2ccccc2)oc2ccccc12		H37Rv			MIC			>12.5 µg/mL
CCCCN(CCCC)Cc1c(C)[nH]c2ccc(N(C)C)cc2c1=O		H37Rv		BACTEC	MIC bound			>12.5 µg/mL
c1ccc(OCCCCn2ccnc2)cc1		H37Rv		turbidity / fluorescence	MIC99			>20 µM
NNC(=O)c1ccncc1		CSU15			MIC			4 µg/mL
Cc1ccc(S(=O)(=O)NNC(=O)c2ccc(-c3ccc[nH]3)[nH]2)cc1		H37Rv		BACTEC	inhibition		12.5 µg/mL	-11%
CCc1nc2ccc(C)cc2n1CCCCSc1ccc(OC)cc1		H37Rv		turbidity / fluorescence	fold resistance	QcrB M342T		10
CCCCCCCCN1COC2CCc3ccccc3C21		H37Rv		resazurin	MIC bound			>6.25 µg/mL
O=C(/C=C/c1ccccc1)c1cccc2ccccc12		H37Rv			EC50			>12.5 µg/mL
c1ccc2[nH]c(SSc3nc4ccccc4[nH]3)nc2c1		H37Rv		BACTEC	inhibition		12.5 µg/mL	42%
COc1ccc2oc(=O)n(-c3ccc(C(F)(F)F)cc3)c(=S)c2c1	14 d	My 331/88			MIC			32 µM
O=C(CNC(=O)Nc1ccc(Cl)c(Cl)c1)N/N=C/c1c(O)ccc2ccccc12		H37Rv		BACTEC	MIC			12.5 µg/mL
CCc1nc2ccc(C)cc2n1CCCNc1ccc(C)cc1		H37Rv		turbidity / fluorescence	MIC99			0.066 µM
Nc1nc(N)c(N=O)c(Nc2cccc(Br)c2)n1		H37Rv		BACTEC	inhibition		12.5 µg/mL	37%
CCn1cc(C(=O)O)c(=O)c2cc(F)c(N3CCN(C/C(=N/O)c4ccccc4)CC3)nc21		H37Rv			MIC			>6.25 µg/mL
CC1CN(C(=O)/C=C/C(=O)OC2CCCCC2)CCN1C(=O)/C=C/C(=O)OC1CCCCC1		H37Rv		BACTEC	inhibition		12.5 µg/mL	97%
COc1ccc2c(c1)OC(c1ccc(Cl)cc1)CC2=O					inhibition		12.5 µg/mL	48%
N=c1c2c(ncn1N)Oc1c(c(-c3ccccc3)nn1-c1ccccc1)C2c1ccc(Cl)cc1		H37Rv	VERO		MIC			3.13 µg/mL
NC[C@H]1O[C@H](O[C@H]2[C@H](O)[C@@H](O[C@H]3O[C@H](CO)[C@@H](O)[C@H](N)[C@H]3O)[C@H](N)C[C@@H]2N)[C@H](O)[C@@H](O)[C@@H]1O		Isolate 6			MIC			16 µg/mL